Compound potency records, mixed from different reports. Data source: NIAID ChemDB in PubChem.

All rows: whole-cell or culture tests; species: HIV-1; method: p24 / ELISA; endpoint: EC50

Rows are shuffled and stem from different studies. a–b is a range or a potency band. ECn: concentration that inhibits the pathogen or its effect by n%. Blank or dashed fields: not listed here.

| smiles | mutations | cell line | strain or isolate | conditions | value |
|---|---|---|---|---|---|
| O=[N+]([O-])c1ccc(S(=O)(=O)Nc2cccc3cccnc23)cc1 | - | H9 | NL4-3 | pseudotyped | >30 µM |
| CCC(=O)C1=C(COC2CCCCC2)NC(=O)NC1c1ccc(O)c(Cl)c1 | - | CEM | - | - | >5 µM |
| O=[N+]([O-])c1cccc(S(=O)(=O)Nc2cccc3cccnc23)c1 | - | H9 | NL4-3 | pseudotyped | >30 µM |
| CC(C)C1=C2[C@H]3CC[C@@H]4[C@@]5(C)CC[C@H](OC(=O)[C@H]6C[C@@H](C(=O)O)C6(C)C)C(C)(C)[C@@H]5CC[C@@]4(C)[C@]3(C)CC[C@@]2([C@@H](O)CNC(=O)c2ccccn2)CC1=O | - | MT-2 | 92HT599 | - | <1 µM |
| CCCCCCCCCCCCCCCCCCOCCOP(=O)(O)CO[C@H](CO)Cn1cnc2c(=O)[nH]c(N)nc21 | M41L T69SS L74V M184V L210W | PBMC | NRTI-MDR | - | 0.011 µM |
| CC(C)(C)OC(=O)N1CCC(CCc2c(-c3ccc(C(F)(F)F)cc3)[nH]n(-c3nc4ccccc4[nH]3)c2=O)CC1 | - | PBMC | NL4-3 | - | <1 µM |
| CCC1=C(C(=O)COC2CCCCC2)C(c2ccc(O)c(Cl)c2)NC(=O)N1 | - | CEM | - | - | >5 µM |
| CCN1C(=O)NC(=O)C(C(C)C)C1CC1CC(C)CC(C#N)C1=O | - | C8166 | IIIB | 20% human serum | 0.00608 µM |
| Nc1ccn([C@@H]2CS[C@H](CO)O2)c(=O)n1 | - | PBMC | NL4-3 | - | 0.026 µM |
| COC(=O)c1cc2c(c(OC)c1-c1ccc(N(C)C)cc1)OCO2 | - | C8166 | RF | - | 0.18 µg/mL |
| CC1([C@@H]2CC[C@]3(NC[C@@H](CO)N4CCS(=O)(=O)CC4)CC[C@]4(C)[C@H](CC[C@@H]5[C@@]6(C)CC[C@H](OC(=O)[C@H]7C[C@@H](C(=O)O)C7(C)C)C(C)(C)[C@@H]6CC[C@]54C)[C@@H]23)CC1 | V7A | MT-4 | NL4-3 | - | <0.05 µM |
| Cn1c2ccccc2c(=O)c2c(O)cccc21 | - | PBMC | IIIB | - | 1.4 µg/mL |
| Cc1cc(C)cc(Cc2c(I)c(=O)[nH]c(=O)n2COCc2ccccc2)c1 | K103N | TZM-bl | A17 | - | 0.035 µM |
| C=C(C)[C@@H]1CC[C@]2(NCCN3CCOCC3)CC[C@]3(C)[C@H](CC[C@@H]4[C@@]5(C)CC[C@H](OC(=O)[C@H]6C[C@@H](C(=O)O)C6(C)C)C(C)(C)[C@@H]5CC[C@]43C)[C@@H]12 | - | MT-2 | 92HT599 | - | ≤0.01 µM |
| CC(C)C1=C2[C@H]3CC[C@@H]4[C@@]5(C)CC[C@H](OC(=O)[C@H]6C[C@@H](C(=O)O)C6(C)C)C(C)(C)[C@@H]5CC[C@@]4(C)[C@]3(C)CC[C@@]2(CCNC[C@H](NC(=O)c2ccc(Cl)cc2)C(C)O)CC1=O | - | MT-2 | 92HT599 | - | <1 µM |
| Cc1ccnc2c1NC(=O)c1cccnc1N2C1CC1 | - | PBMC | LAV | - | 0.532 µM |
| CC(C)S(=O)(=O)N1CCN(CCN[C@]23CC[C@@H](C4(C)CC4)[C@@H]2[C@H]2CC[C@@H]4[C@@]5(C)CC[C@H](OC(=O)[C@H]6C[C@@H](C(=O)O)C6(C)C)C(C)(C)[C@@H]5CC[C@@]4(C)[C@]2(C)CC3)CC1 | - | MT-2 | 92HT599 | - | ≤0.01 µM |
| CCC1=C(C(=O)OCC2CCCCC2)C(c2cc(Cl)c(NC(=O)OC(C)(C)C)c(Cl)c2)NC(=O)N1 | - | CEM | - | - | ≤1 µM |
| O=c1c(CCc2ccc(F)cc2)c(-c2ccc(C(F)(F)F)cc2)[nH]n1-c1cc(C(F)(F)F)[nH]n1 | - | PBMC | NL4-3 | - | ≤0.01 µM |
| CC(C)[C@H](CN[C@]12CC[C@@H](C3(C)CC3)[C@@H]1[C@H]1CC[C@@H]3[C@@]4(C)CC[C@H](OC(=O)[C@H]5C[C@@H](C(=O)O)C5(C)C)C(C)(C)[C@@H]4CC[C@@]3(C)[C@]1(C)CC2)N1CCS(=O)(=O)CC1 | - | MT-4 | NL4-3 | - | >0.05 µM |
| CCCCCCCCC(=O)O[C@@]12[C@H](OC(=O)CCCCCC3SCC4NC(=O)NC43)[C@@H](C)[C@@]3(O)[C@@H](C=C(CO)C[C@]4(O)C(=O)C(C)=C[C@@H]34)[C@@H]1C2(C)C | - | C8166 | IIIB | - | 0.3019 µM |
| Cn1c2ccccc2c(=O)c2c(O)ccc(O)c21 | - | OM-10.1 | IIIB | - | >0.36 µg/mL |
| Cc1ccc(C(=O)NC(C)(C)CNC[C@H](O)[C@@]23CC[C@]4(C)[C@H](CC[C@@H]5[C@@]6(C)CC[C@H](OC(=O)[C@H]7C[C@@H](C(=O)O)C7(C)C)C(C)(C)[C@@H]6CC[C@]54C)C2=C(C(C)C)C(=O)C3)cc1 | - | MT-2 | 92HT599 | - | <1 µM |
| CC(=O)O[C@@]12[C@H](OC(=O)/C=C/c3ccccc3)[C@@H](C)[C@@]3(O)[C@@H](C=C(CO)C[C@]4(O)C(=O)C(C)=C[C@@H]34)[C@@H]1C2(C)C | - | C8166 | IIIB | - | 0.014 µM |
| C[C@H](O)[C@H](CN[C@]12CC[C@@H](C3(C)CC3)[C@@H]1[C@H]1CC[C@@H]3[C@@]4(C)CC[C@H](OC(=O)[C@H]5C[C@@H](C(=O)O)C5(C)C)C(C)(C)[C@@H]4CC[C@@]3(C)[C@]1(C)CC2)N1CCS(=O)(=O)CC1 | - | MT-2 | 92HT599 | - | <0.01 µM |
| C=C(C)[C@@H]1CC[C@]2(NCCN3CCN(S(C)(=O)=O)CC3)CC[C@]3(C)[C@H](CC[C@@H]4[C@@]5(C)CC[C@H](OC(=O)[C@H]6C[C@@H](C(=O)O)C6(C)C)C(C)(C)[C@@H]5CC[C@]43C)[C@@H]12 | - | MT-2 | 92HT599 | - | ≤0.01 µM |
| CC(C)C1=C2[C@H]3CC[C@@H]4[C@@]5(C)CC[C@H](OC(=O)[C@H]6C[C@@H](C(=O)O)C6(C)C)C(C)(C)[C@@H]5CC[C@@]4(C)[C@]3(C)CC[C@@]2([C@@H](O)CNC(=O)c2ccc(Cl)cc2OCCN2CCCCC2)CC1=O | - | MT-2 | 92HT599 | - | <1 µM |
| CCCCCCCCCCCCCC(=O)O[C@@H]1[C@@H](C)[C@@]2(O)[C@@H](C=C(CO)C[C@]3(O)C(=O)C(C)=C[C@@H]23)[C@@H]2C(C)(C)[C@]12O | - | C8166 | IIIB | - | 1.625 µM |
| CC(C)C1=C2[C@H]3CC[C@@H]4[C@@]5(C)CC[C@H](OC(=O)[C@H]6C[C@@H](C(=O)O)C6(C)C)C(C)(C)[C@@H]5CC[C@@]4(C)[C@]3(C)CC[C@@]2([C@@H](O)CNCc2cccc(Cl)c2)CC1=O | - | MT-2 | 92HT599 | - | <1 µM |
| O=C1NC(C2CC2)=C(C(=O)OCC2CCCCC2)C(c2cccc(O)c2)N1 | - | CEM | - | - | >1 µM |
| CC1([C@@H]2CC[C@]3(NC[C@H](CF)N4CCS(=O)(=O)CC4)CC[C@]4(C)[C@H](CC[C@@H]5[C@@]6(C)CC[C@H](OC(=O)[C@H]7C[C@@H](C(=O)O)C7(C)C)C(C)(C)[C@@H]6CC[C@]54C)[C@@H]23)CC1 | - | MT-2 | 92HT599 | - | <0.01 µM |
| COc1cnc(-n2cnc(C)n2)c2[nH]cc(C(=O)C(=O)N3CCN(C(=O)c4ccccc4)CC3)c12 | - | PM1 | BaL | - | 0.0017 µM |
| CC/C=C\C/C=C\C/C=C\C/C=C\C/C=C\CCCC(=O)O[C@@H]1[C@@H](C)[C@@]2(O)[C@@H](C=C(CO)C[C@]3(O)C(=O)C(C)=C[C@@H]23)[C@@H]2C(C)(C)[C@]12OC(=O)CCC | - | C8166 | IIIB | - | 0.0074 µM |
| COc1ccc(S(=O)(=O)Nc2cccc3cccnc23)cc1 | - | H9 | NL4-3 | pseudotyped | >50 µM |
| COc1ccc2[nH]c(=O)c(CN(Cc3cccnc3)S(=O)(=O)c3cccc4nsnc34)cc2c1 | - | PBMC | IIIB | - | 0.0096 µM |
| COc1cc2c(OC3OC(C)C(OC4OC(CO)C(O)C(O)C4O)C(O)C3OC(C)=O)c3c(c(-c4ccc5c(c4)OCO5)c2cc1OC)C(=O)OC3 | - | PBMC | N119 | - | 0.495 µM |
| CC/C=C\C/C=C\C/C=C\C/C=C\C/C=C\C/C=C\CCC(=O)O[C@@H]1[C@@H](C)[C@@]2(O)[C@@H](C=C(CO)C[C@]3(O)C(=O)C(C)=C[C@@H]23)[C@@H]2C(C)(C)[C@]12O | - | C8166 | IIIB | - | 5.06 µM |
| C=C(C)[C@@H]1CC[C@]2(NCCN3CCS(=O)(=O)CC3)CC[C@]3(C)[C@H](CC[C@@H]4[C@@]5(C)CC[C@H](OC(=O)[C@H]6C[C@@H](C(=O)O)C6(C)C)C(C)(C)[C@@H]5CC[C@]43C)[C@@H]12 | - | MT-2 | 92HT599 | - | ≤0.01 µM |
| C#CC1=C(C(=O)OCC2CCCCC2)C(c2cccc(O)c2)NC(=O)N1 | - | CEM | - | - | 1–5 µM |
| C=C(C)[C@@H]1CC[C@]2(NCCN3CCN(S(=O)(=O)C(C)C)CC3)CC[C@]3(C)[C@H](CC[C@@H]4[C@@]5(C)CC[C@H](OC(=O)[C@H]6C[C@@H](C(=O)O)C6(C)C)C(C)(C)[C@@H]5CC[C@]43C)[C@@H]12 | - | MT-2 | 92HT599 | - | ≤0.01 µM |
| CCC1=C(C(=O)OCC2CCCCC2)C(Cc2ccccc2)NC(=O)N1 | - | CEM | - | - | >5 µM |
| CC/C=C\C/C=C\C/C=C\C/C=C\C/C=C\CCCC(=O)O[C@@]12[C@H](O)[C@@H](C)[C@@]3(O)[C@@H](C=C(CO)C[C@]4(O)C(=O)C(C)=C[C@@H]34)[C@@H]1C2(C)C | - | C8166 | IIIB | - | 0.1362 µM |
| C[C@@H](CN[C@]12CC[C@@H](C3(C)CC3)[C@@H]1[C@H]1CC[C@@H]3[C@@]4(C)CC[C@H](OC(=O)[C@H]5C[C@@H](C(=O)O)C5(C)C)C(C)(C)[C@@H]4CC[C@@]3(C)[C@]1(C)CC2)N1CCS(=O)(=O)CC1 | - | MT-2 | 92HT599 | - | <0.01 µM |
| O=S(=O)(Nc1cccc2cccnc12)c1ccc(Cl)cc1 | - | H9 | NL4-3 | pseudotyped | >50 µM |
| CCC1=C(C(=O)OCC2CCCCC2)C(c2cc(Cl)c(OC)c(OC)c2)NC(=O)N1 | - | CEM | - | - | ≤1 µM |
| O=S(=O)(c1cccc2cnccc12)N1CCNCC1 | - | OM-10.1 | IIIB | - | 1.26 µg/mL |
| CCC1=C(C(=O)OCC2CCCCC2)C(c2ccc(N(C)C)cc2)NC(=O)N1 | - | CEM | - | - | ≤1 µM |
| CCCCCCCCCCCCCCCCCCOCCOP(=O)(O)CO[C@H](CO)Cn1ccc(N)nc1=O | - | MT-2 | LAI | - | 0.0001 µM |
| CC(C)C1=C2[C@H]3CC[C@@H]4[C@@]5(C)CC[C@H](OC(=O)[C@H]6C[C@@H](C(=O)O)C6(C)C)C(C)(C)[C@@H]5CC[C@@]4(C)[C@]3(C)CC[C@@]2(CC(=O)NCC(C)(C)NC(=O)c2ccc(Cl)cc2OCCN2CCCC2)CC1=O | - | MT-2 | 92HT599 | - | <1 µM |
| CC/C=C\C/C=C\C/C=C\C/C=C\C/C=C\CCCC(=O)O[C@@H]1[C@@H](C)[C@@]2(O)[C@@H](C=C(CO)C[C@]3(O)C(=O)C(C)=C[C@@H]23)[C@@H]2C(C)(C)[C@]12O | - | C8166 | IIIB | - | 5.325 µM |
| Cc1cn([C@H]2C[C@H](N=[N+]=[N-])[C@@H](CO)O2)c(=O)[nH]c1=O | - | C8166 | 89.6 | - | 0.00589 µM |
| CC1([C@@H]2CC[C@]3(NCCN4CCN(C(=O)c5ccccc5)CC4)CC[C@]4(C)[C@H](CC[C@@H]5[C@@]6(C)CC[C@H](OC(=O)[C@H]7C[C@@H](C(=O)O)C7(C)C)C(C)(C)[C@@H]6CC[C@]54C)[C@@H]23)CC1 | - | MT-2 | 92HT599 | - | ≤0.01 µM |
| COc1ccc(O)c2c(=O)c3ccccc3n(C)c12 | - | OM-10.1 | IIIB | - | >16 µg/mL |
| CCCCCCCCCCCCCCCCCCOCCOP(=O)(O)CO[C@H](CO)Cn1cnc2c(N)ncnc21 | M41L T69SS L74V M18V L210W | PBMC | NRTI-MDR | - | 0.016 µM |
| CC(C)C1=C2[C@H]3CC[C@@H]4[C@@]5(C)CC[C@H](OC(=O)[C@H]6C[C@@H](C(=O)O)C6(C)C)C(C)(C)[C@@H]5CC[C@@]4(C)[C@]3(C)CC[C@@]2([C@@H](O)CNC(=O)C2(NC(=O)c3ccc(Cl)cc3)CC2)CC1=O | - | MT-2 | 92HT599 | - | <1 µM |
| COc1cc(O)c2c(=O)c3ccccc3n(C)c2c1 | - | OM-10.1 | IIIB | - | >0.8 µg/mL |
| CCC1=C(C(=O)CC2CCCC2)[C@H](c2ccc(O)c(Cl)c2)NC(=O)N1 | - | CEM | - | - | >5 µM |

6 of the rows above, restated:

smiles	mutations	cell line	strain or isolate	conditions	value
C=C(C)[C@@H]1CC[C@]2(NCCN3CCN(S(C)(=O)=O)CC3)CC[C@]3(C)[C@H](CC[C@@H]4[C@@]5(C)CC[C@H](OC(=O)[C@H]6C[C@@H](C(=O)O)C6(C)C)C(C)(C)[C@@H]5CC[C@]43C)[C@@H]12	-	MT-2	92HT599	-	≤0.01 µM
CCN1C(=O)NC(=O)C(C(C)C)C1CC1CC(C)CC(C#N)C1=O	-	C8166	IIIB	20% human serum	0.00608 µM
C=C(C)[C@@H]1CC[C@]2(NCCN3CCS(=O)(=O)CC3)CC[C@]3(C)[C@H](CC[C@@H]4[C@@]5(C)CC[C@H](OC(=O)[C@H]6C[C@@H](C(=O)O)C6(C)C)C(C)(C)[C@@H]5CC[C@]43C)[C@@H]12	-	MT-2	92HT599	-	≤0.01 µM
CCCCCCCCCCCCCCCCCCOCCOP(=O)(O)CO[C@H](CO)Cn1ccc(N)nc1=O	-	MT-2	LAI	-	0.0001 µM
O=S(=O)(c1cccc2cnccc12)N1CCNCC1	-	OM-10.1	IIIB	-	1.26 µg/mL
CC/C=C\C/C=C\C/C=C\C/C=C\C/C=C\CCCC(=O)O[C@@]12[C@H](O)[C@@H](C)[C@@]3(O)[C@@H](C=C(CO)C[C@]4(O)C(=O)C(C)=C[C@@H]34)[C@@H]1C2(C)C	-	C8166	IIIB	-	0.1362 µM